Measured values from several laboratories, pooled; numbers as filed in NIAID ChemDB.

All rows: tests in culture; organism: Mouse cytomegalovirus; read-out: EC50

Rows are shuffled and stem from different studies. An empty or dashed field is not shown. ECn is the concentration giving n% inhibition of infection, replication or growth.

smiles | strain | read by | cell line | value
CC(C)(CF)C(=O)Nc1cccc(NS(=O)(=O)c2ccc(-c3noc(-c4ccccc4)n3)cc2)c1 | SMITH | cytopathic effect | 3T3 | 0.03 µM
CN(C)c1cccc2c(S(=O)(=O)Nc3ccc(NC(=O)C(C)(C)CO)cc3)cccc12 | BAY 38-4766-resistant | plaque count | - | 28.3 µM
NC1=NCCN1CC(=O)O | - | cytopathic effect | 3T3 | 16100 µM
Nc1nc2c(ncn2COC(CO)CO)c(=O)[nH]1 | SMITH (WILD TYPE) | plaque count | HFF | 27.8 µM
Nc1nc2c(ncn2C[C@]2(CO)C[C@H]2CO)c(=O)[nH]1 | SMITH | cytopathic effect | C1271 | 15 µg/mL
Cc1nc2ccc(CN(C)c3ccc(C(=O)N[C@@H](CCC(=O)O)C(=O)O)s3)cc2c(=O)[nH]1 | - | virus yield | - | 0.006 µM
O=C(NO)c1ccc(O)c(O)c1 | SMITH | plaque count | - | 20.71 µM
COc1cc(OC)c(NC(=S)Nc2ccc(NC(C)=O)cc2)cc1Cl | SMITH | - | MEF | >20 µM
O=C(Nc1ccc(NC(=S)Nc2cc(C(F)(F)F)cc(C(F)(F)F)c2)cc1)c1csnn1 | SMITH | virus yield | HFF | >20 µM
Nc1nc2c(ncn2C=C2CC2CO)c(=O)[nH]1 | - | - | MEF | 0.3 µM
CNc1cccc2c(S(=O)(=O)Nc3ccc(NC(=O)C(C)(C)CF)cc3)cccc12 | WILD TYPE | plaque count | - | 0.015 µM
O=c1[nH]c(=O)n([C@H]2C[C@H](O)[C@@H](CO)O2)cc1C(F)(F)F | ATCC VR-194 | virus yield | MEF | 0.22 µM
CCOP(=O)(O)COCOn1cnc2c(=O)[nH]c(N)nc21 | SMITH | - | - | 0.51 µg/mL
CCOP(=O)([O-])CCC(CO)OCn1cnc2c(=O)[nH]c(N)nc21 | SMITH | cytopathic effect | 3T3 | 6.1 µg/mL
COC(=O)[C@H](C)NP(=O)(OC[C@H]1C/C1=C/n1cnc2c(N)nc(N)nc21)Oc1ccccc1 | - | - | MEF | 3.2 µM
CC(C)Nc1nc2cc(Cl)c(Cl)cc2n1[C@H]1O[C@@H](CO)[C@H](O)[C@@H]1O | Smith (resistant) | plaque count | HFF | 30 µM
COC(=O)[C@H](C)NP(=O)(OCC1C/C1=C/n1cnc2c(=O)[nH]c(N)nc21)Oc1ccccc1 | - | - | MEF | 3.3 µM
CNc1cccc2c(S(=O)(=O)Nc3ccc(NC(=O)C(C)(C)CO)cc3)cccc12 | BAY 38-4766-resistant | plaque count | - | 31 µM
O=C(O)P(=O)(O)O | SMITH (WILD TYPE) | plaque count | HFF | 195 µM

2 of the rows above, restated:

Cc1nc2ccc(CN(C)c3ccc(C(=O)N[C@@H](CCC(=O)O)C(=O)O)s3)cc2c(=O)[nH]1 ; read by: virus yield ; value: 0.006 µM
CCOP(=O)(O)COCOn1cnc2c(=O)[nH]c(N)nc21 ; strain: SMITH ; value: 0.51 µg/mL